{"source": "patent US6495580B1", "about": "“Compounds, compositions and methods for treating or preventing pneumovirus infection and associated diseases” (ViroPharma Incorporated, priority 1998, dated 2002)"}
{"tested_on": "normal cells", "assay": "MTT cytotoxicity assay", "type": "cell-based", "conditions": "selective index, CC75/IC50 (human RSV subtype A)", "description": "This assay measures cell viability, and therefore cytotoxicity, by quantitatively detecting the in situ reduction of 3-(4,5-dimethylthiazol-2-yl)-2,5-diphenyltetrazolium bromide (MTT) by viable cells. Cells are seeded in 96-well plates in DMEM containing 5% FBS at a density of 4×10^3 cells per well. After incubation for 4 hours at 37° C. and 5% CO2, 2-fold serial dilutions of compound in 1% DMSO (or solvent alone) are added to quadruplicate wells and the plates are incubated for an additional 68 hours at 37° C. and 5% CO2, which is equivalent to 3 to 4 cell doublings. The culture medium is removed, and the cells are treated with 1 mg/ml of MTT in phosphate-buffered saline, pH 7.2 for 4 hours at 37° C. and 5% CO2. After removal of the unreduced MTT, the reduced blue formazan crystals produced by the viable cells are solubilized by the addition of 0.04N HCl in isopropanol. The optical density at 570 nm (OD570) of each well is read using a suitable microplate reader. Cell viability is expressed as the percentage of optical density for compound-treated cells relative to the optical density of solvent alone-treated control wells. The highest compound concentration resulting in an optical density of≧75% of the control is represented as the cellular cytotoxicity value (CC75)."}
{"compound": "Nc1nnnn1N=Cc1ccc(O)c(Cc2cc(C=Nn3nnnc3N)ccc2O)c1", "note": "[Example 8]", "SI": 25}
{"compound": "Nc1nnnn1N=Cc1ccc(C(c2ccccc2)c2ccc(C=Nn3nnnc3N)cc2O)c(O)c1", "note": "(stereo not drawn) [Example 7, 5,5′-Bis[1-(((5-amino-1H-tetrazolyl)imino)methyl)]-2,2′-benzylidenebisphenol]", "SI": ">6,250"}
{"compound": "Nc1nnn(N=Cc2ccc(C(c3ccc(O)cc3)c3ccc(C=Nn4nnc(N)n4)cc3O)c(O)c2)n1", "note": "(stereo not drawn) [Example 5, 5,5′-Bis[2-(((5-amino-2H-tetrazolyl)imino)methyl)]-2,2′,4″-methylidynetrisphenol]", "SI": ">556"}
{"compound": "Nc1nncn1N=Cc1ccc(O)c(C(c2ccc(O)cc2)c2cc(C=Nn3cnnc3N)ccc2O)c1", "note": "(stereo not drawn) [Example 4, 5,5′-Bis[4-(((3-amino-4H-1,2,4-triazolyl)imino)methyl)]-2,2′,4″-methylidyne trisphenol]", "SI": 171}
{"compound": "COc1ccc(C(c2ccc(C=Nn3nnnc3N)cc2O)c2ccc(C=Nn3nnnc3N)cc2O)cc1", "note": "(stereo not drawn) [Example 2, 5,5′-Bis[1-(((5-amino-1H-tetrazolyl)imino)methyl)]-4″-methoxyphenyl-2,2′-benzylidenebisphenol]", "SI": ">150,000"}
{"compound": "NC(=O)c1ncn([C@@H]2O[C@H](CO)[C@@H](O)[C@H]2O)n1", "note": "[Ribavirin, 1-beta-D-ribofuranosyl-1H-1,2,4-triazole-3-carboxamide, reference compound]", "SI": "<1"}
{"compound": "Cc1nnnn1/N=C/c1ccc(O)c(C(c2ccc(O)cc2)c2cc(/C=N/n3nnnc3C)ccc2O)c1", "note": "[Example 6, 5,5′-Bis[1-(((5-methyl-1H-tetrazolyl)imino)methyl)]-2,2′,4″-methylidynetrisphenol]", "SI": "3,100"}
{"compound": "Nc1nnnn1N=Cc1ccc(O)c(C(c2ccc(O)cc2)c2cc(C=Nn3nnnc3N)ccc2O)c1", "note": "(stereo not drawn) [Example 1, 5,5′-Bis[1-(((5-amino-1H-tetrazolyl)imino)methyl)]2,2′,4″-methylidynetrisphenol]", "SI": ">12,500"}
{"compound": "Nc1ncnn1N=Cc1ccc(O)c(C(c2ccc(O)cc2)c2cc(C=Nn3ncnc3N)ccc2O)c1", "note": "(stereo not drawn) [Example 3, 5,5′-Bis[1-(((5-amino-1H-1,2,4 triazolyl)imino)methyl)]-2,2′, 4″t-methylidyne trisphenol]", "SI": 250}
